Assay results: US20260131011A1, “Anti-Viral Therapeutic Peptides, Conjugates, and Methods of Use Thereof” (published 2026)

Target: SARS-CoV-2 full-length Spike, WT D614G (SARS-CoV-2, UniProt P0DTC2)
Test: cell-based or functional assay

| Binder | IC50, pseudovirus neutralization, WT D614G [µM] | IC80, pseudovirus neutralization, WT D614G [µM] |
| --- | --- | --- |
| DISGINASVVNIQKPIDPLNEVAKPLNEPLIDLQELGSGSGC [polypeptide of SEQ ID NO. 602] | > 10 | > 10 |
| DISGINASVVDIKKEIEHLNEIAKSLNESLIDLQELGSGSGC [polypeptide of SEQ ID NO. 612] | > 10 | > 10 |
| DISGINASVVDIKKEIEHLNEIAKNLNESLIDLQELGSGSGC [polypeptide of SEQ ID NO. 613] | > 10 | > 10 |
| EAAAKEAAAKEAAAKEAAAKEAAAKEAAAKEAAAKEAAAKC [polypeptide of SEQ ID NO. 630] | > 10 | > 10 |
